Test results from PubChem BioAssay AID1347131 (National Center for Advancing Translational Sciences (NCATS), 2019).
“And” between values parts separate entries of the source, which are not always exact repeats. Equal entries are not always repeated. This is one part of the list. Results filed as inconclusive are left out. The source made the active and inactive calls. The call rests on the fitted dose curve; tested in HEK293 reporter line.

Assay: qHTS Assay for Foot and Mouth Disease Virus Antivirals: Primary Screen against the MLPCN compound library; further: nearly all actives have a fitted effect of over 55% in size
Details: FMDV antiviral cell-based qHTS; at 57.9 µM (top of the series)

Q: With `CC(C)C(=O)NC(Sc1ccccc1)C(Cl)(Cl)Cl` (stereo not given) as the compound, how does the activity, negative = inhibition read?
A: inactive: -12.1%

Q: Which activity, negative = inhibition does the source give for `O=P(Nc1nccs1)(c1ccccc1)c1ccccc1` here?
A: inactive: -9.77%

Q: With `C[C@H]1OP(=O)(Oc2ccccc2)[C@H](O)[C@H](O)[C@H]1N=[N+]=[N-]` (stereo not given in full) as the compound, how does the activity, negative = inhibition read?
A: inactive: -10.3%

Q: With `O=P(Nc1nc2ccccc2s1)(c1ccccc1)c1ccccc1` as the compound, how does the activity, negative = inhibition read?
A: inactive: 74.6%

Q: With `O=P(Nc1ccccn1)(c1ccc(Br)cc1)c1ccc(Br)cc1` as the compound, how does the activity, negative = inhibition read?
A: inactive: 66.4%

Q: With `CN(C)C1(CNC(=O)c2ccc(Cl)c(S(N)(=O)=O)c2)CCCCC1` as the compound, how does the activity, negative = inhibition read?
A: inactive: -7.46%

Q: With `Nc1ccc(CCCCOc2ccccc2)cc1` as the compound, how does the activity, negative = inhibition read?
A: inactive: 32%

Q: With `COc1ccc(N)c([N+](=O)[O-])c1[N+](=O)[O-]` as the compound, how does the activity, negative = inhibition read?
A: inactive: 0.924%

Q: For `O=C(OC1CN2CCC1CC2)c1cccc(Cl)c1` (stereo not given), which activity, negative = inhibition is on record?
A: inactive: -5.13%

Q: For `Nc1ccc([As](=O)(O)c2ccc([N+](=O)[O-])cc2)cc1`, which activity, negative = inhibition is on record?
A: inactive: 25.6%

Q: With `C(Cc1nn[nH]n1)Cc1nn[nH]n1` as the compound, how does the activity, negative = inhibition read?
A: inactive: -16.1%

Q: Which activity, negative = inhibition does the source give for `O=[As](O)(c1ccccc1)c1ccc(O)cc1` here?
A: inactive: 6.37%

Q: Which activity, negative = inhibition does the source give for `O=[N+]([O-])c1ncn(CCn2cnc([N+](=O)[O-])n2)n1` here?
A: inactive: -11.1%

Q: Which activity, negative = inhibition does the source give for `CN(C)C1(CNC(=O)c2ccc(S(C)(=O)=O)cc2)CCCCC1` here?
A: inactive: 1.08%

Q: With `CCCC1OP(=O)(Nc2ccccc2)OCC1CC` (stereo not given) as the compound, how does the activity, negative = inhibition read?
A: inactive: 11.4%

Q: With `O=C(/C=C/c1ccccc1)OC1CN2CCC1CC2` (stereo not given) as the compound, how does the activity, negative = inhibition read?
A: inactive: 5.87%

Q: For `Cc1ccc(C(=O)OC2CN3CCC2CC3)cc1` (stereo not given), which activity, negative = inhibition is on record?
A: inactive: 12.4%

Q: For `Nc1cccc([As](=O)(O)c2ccccc2)c1`, which activity, negative = inhibition is on record?
A: inactive: -6.58%

Q: For `O=P1(Nc2ccc(Br)cn2)COc2ccccc2OC1`, which activity, negative = inhibition is on record?
A: inactive: 54.3%

Q: Which activity, negative = inhibition does the source give for `NS(=O)(=O)c1cccc(NC(=O)COC(=O)C(O)(c2ccccc2)c2ccccc2)c1` here?
A: inactive: -23.4%

Q: Which activity, negative = inhibition does the source give for `O=[As](O)(c1cccs1)c1cccs1` here?
A: inactive: -3.79%

Q: Which activity, negative = inhibition does the source give for `Cc1ccc(OCC(=O)OC2CN3CCC2CC3)cc1` (stereo not given) here?
A: inactive: -19.4%

Q: With `Cc1ccc(S(=O)(=O)N(CCCN)CCCc2c(C)nc(N)[nH]c2=O)cc1` as the compound, how does the activity, negative = inhibition read?
A: inactive: -5.21%

Q: For `O=P1(Nc2ncccn2)COc2ccccc2OC1`, which activity, negative = inhibition is on record?
A: inactive: -3.94%

Q: Which activity, negative = inhibition does the source give for `CC(C)(C)C(=O)NC(Sc1ncccn1)C(Cl)(Cl)Cl` (stereo not given) here?
A: inactive: -23.3%

Q: Which activity, negative = inhibition does the source give for `O=P1(N(CCCl)CCCl)NCCC(C(F)(F)F)O1` (stereo not given) here?
A: inactive: -10%

Q: With `Clc1n[nH]nc1-c1nn[nH][15n]1` as the compound, how does the activity, negative = inhibition read?
A: inactive: -0.709%

Q: With `CCOP(=O)(NC(=NC(C)c1ccccc1)NC(C)c1ccccc1)OCC` (stereo not given) as the compound, how does the activity, negative = inhibition read?
A: inactive: -1.38%

Q: Which activity, negative = inhibition does the source give for `O=P1(Nc2ccccn2)COc2ccccc2OC1` here?
A: inactive: 24.3%

Q: With `CN(CCCl)Cc1cc(Cl)c(NC2=NCCN2)c(Cl)c1` as the compound, how does the activity, negative = inhibition read?
A: inactive: -5.84% and inactive: 9.51%

Q: Which activity, negative = inhibition does the source give for `CCOP(=O)(Nc1ccc(C)cn1)OCC` here?
A: inactive: 1.59%

Q: For `CC(C)/C=N\N=C(\N)N[N+](=O)[O-]`, which activity, negative = inhibition is on record?
A: inactive: 15.5%

Q: With `CN(C(=O)Cc1ccc(Cl)c(Cl)c1)[C@@H]1CCCC[C@H]1N1CCCC1` as the compound, how does the activity, negative = inhibition read?
A: inactive: 9.31%

Q: Which activity, negative = inhibition does the source give for `CC1(CBr)Cn2c(nc3ccccc3c2=O)S1` (stereo not given) here?
A: inactive: -4.65%

Q: Which activity, negative = inhibition does the source give for `COc1ccccc1CNC(=O)COC(=O)C(O)(c1ccccc1)c1ccccc1` here?
A: inactive: -18.6%

Q: For `O=[As](O)(c1cccc(O)c1)c1cccc(O)c1`, which activity, negative = inhibition is on record?
A: inactive: -8.69%

Q: For `Cc1cccc(OCC(=O)OC2CN3CCC2CC3)c1` (stereo not given), which activity, negative = inhibition is on record?
A: inactive: -17.5%

Q: With `O=C(OC1CN2CCC1CC2)c1ccc(Cl)cc1` (stereo not given) as the compound, how does the activity, negative = inhibition read?
A: inactive: -10.5%

Q: For `CS(=O)(=O)c1ccc(Cl)c(NC(=O)COC(=O)C(O)(c2ccccc2)c2ccccc2)c1`, which activity, negative = inhibition is on record?
A: inactive: 0%

Q: Which activity, negative = inhibition does the source give for `COc1cc(C(=O)NCC2(N3CCOCC3)CCCCC2)cc(Cl)c1OC(C)C` here?
A: inactive: 3.92%

Q: For `O=[As](O)(O)c1cccnc1`, which activity, negative = inhibition is on record?
A: inactive: -5.21%

Q: Which activity, negative = inhibition does the source give for `CCOP(=O)(Nc1cccc2ccccc12)OCC` here?
A: inactive: -9.6%

Q: Which activity, negative = inhibition does the source give for `COc1cc(C2NCCC3(OCCO3)C2(C)C)cc(OC)c1OC` (stereo not given) here?
A: inactive: -2.67%

Q: With `Nc1cccc2c([As](=O)(O)O)cccc12` as the compound, how does the activity, negative = inhibition read?
A: inactive: -8.68%

Q: With `Cc1ccc(NCCc2c([N+](=O)[O-])cc([N+](=O)[O-])cc2[N+](=O)[O-])cc1` as the compound, how does the activity, negative = inhibition read?
A: inactive: -3.96%

Q: For `CCCOP(=S)(Nc1nc(N)cc(=O)[nH]1)OCCC`, which activity, negative = inhibition is on record?
A: inactive: 7.06%

Q: With `Nc1ccccc1[As](=O)(O)c1ccccc1` as the compound, how does the activity, negative = inhibition read?
A: inactive: 3.75%

Q: For `O=C(O)COc1ccc([As](=O)(O)O)cc1[N+](=O)[O-]`, which activity, negative = inhibition is on record?
A: inactive: -6.22%

Q: For `O=P(Nc1nccs1)(c1ccccc1)c1nc2ccccc2s1` (stereo not given), which activity, negative = inhibition is on record?
A: inactive: -0.486%

Q: For `O=P(Nc1nccs1)(Oc1ccccc1)Oc1ccccc1`, which activity, negative = inhibition is on record?
A: inactive: 0%

Q: For `CN(C(=O)Cc1ccccc1)[C@@H]1CC[C@]2(CCCO2)C[C@H]1N1CCCC1`, which activity, negative = inhibition is on record?
A: inactive: -12.9%

Q: For `N#CCCN(C(=O)COC(=O)C(O)(c1ccccc1)c1ccccc1)c1ccc(F)cc1`, which activity, negative = inhibition is on record?
A: inactive: -22.7%

Q: With `CN(C(=O)Cc1ccc(Cl)c(Cl)c1)[C@H]1CC[C@@]2(CCCO2)C[C@@H]1N1CCCC1` as the compound, how does the activity, negative = inhibition read?
A: inactive: -13.8%

Q: With `O=[N+]([O-])c1ccc2c(c1)nnn2O` as the compound, how does the activity, negative = inhibition read?
A: inactive: 2.56%

Q: Which activity, negative = inhibition does the source give for `NC(=O)Nc1ccc([As](=O)(O)O)cc1` here?
A: inactive: -21.3%

Q: Which activity, negative = inhibition does the source give for `[N-]=[N+]=NC1CCCCC1NC(=O)c1cc([N+](=O)[O-])cc([N+](=O)[O-])c1` (stereo not given) here?
A: inactive: -23.4%

Q: Which activity, negative = inhibition does the source give for `Cc1ccc(OP(=O)(Nc2ccc([N+](=O)[O-])cn2)Oc2ccc(C)cc2)cc1` here?
A: inactive: 61.1%

Q: For `Cc1ccc2nc3c(c(C)c2c1)CC(C(Cl)Cl)S3` (stereo not given), which activity, negative = inhibition is on record?
A: inactive: 57.4%

Q: For `COc1cc(C(=O)NCC2(N3CCOCC3)CCCCC2)ccc1OCC(C)C`, which activity, negative = inhibition is on record?
A: inactive: -7.01%

Q: Which activity, negative = inhibition does the source give for `O=[N+]([O-])c1ccc(-c2cc([N+](=O)[O-])c(O)c([N+](=O)[O-])c2)cc1` here?
A: inactive: -22%

Q: For `O=[As](O)(c1ccc(O)cc1)c1ccccc1O`, which activity, negative = inhibition is on record?
A: inactive: -2.77%

Q: For `C[As](=O)(O)c1cccc(C(=O)O)c1`, which activity, negative = inhibition is on record?
A: inactive: -11.5%

Q: Which activity, negative = inhibition does the source give for `O=[N+]([O-])c1cc([N+](=O)[O-])c(-c2ccn[nH]2)s1` here?
A: inactive: -29.4%

Q: For `O=C(OC1CN2CCC1CC2)c1cccc2[nH]cnc12` (stereo not given), which activity, negative = inhibition is on record?
A: inactive: -7.38%

Q: For `CCN(CC)C(=S)SC(NC=O)C(Cl)(Cl)Cl` (stereo not given), which activity, negative = inhibition is on record?
A: inactive: -12.1%
